Measured values from several laboratories, pooled; numbers as filed in NIAID ChemDB.

Common to all: growth or infection tests; species: HIV-1; cells: MT-4; read by: MTT / absorbance; endpoint: EC50

Conditions beyond the fields shown may differ between rows. ECn is the concentration giving n% inhibition of infection, replication or growth.

Cc1cn([C@H]2C[C@H](N=[N+]=[N-])[C@@H](CO)O2)c(=O)[nH]c1=O ; strain or isolate: IIIB ; value: 3.81 µM
O=C(N/N=C/c1ccc(Cl)cc1)c1csc(N2N=C(c3ccccc3)CC2c2ccc(Cl)cc2)n1 ; strain or isolate: IIIB ; value: >125 µM
N#C/C=C1/c2cc(S)cc([N+](=O)[O-])c2-c2c1cc(S(=O)(=O)NCc1ccccc1)cc2[N+](=O)[O-] ; strain or isolate: IIIB ; value: 72.64 µM
O=C(N/N=C/c1ccc([N+](=O)[O-])cc1)c1csc(N2N=C(c3ccccc3)CC2c2ccc(Cl)cc2)n1 ; strain or isolate: IIIB ; value: >105.9 µM
Cc1cc(NC(=O)Cc2ccc3ccccc3c2)ccc1N1C(=O)c2ccc(Cl)cc2C1=O ; strain or isolate: IIIB ; value: 0.02 µM
O=C1C=C2C[C@H](C3=C4C=C[C@@H]5C[C@@]4(OC3=O)[C@H]3CCCN53)[C@@H]3C[C@@]2(O1)[C@H]1CCCN31 ; strain or isolate: NL4-3 ; value: 7.8 µM
O=C(N/N=C/c1ccc(Cl)cc1Cl)c1csc(N2N=C(c3ccccc3)CC2c2ccc(Cl)cc2)n1 ; strain or isolate: IIIB ; value: >94.9 µM
CC(=O)Nc1ccc(N2C(=O)c3ccc(Cl)cc3C2=O)c(C)c1 ; strain or isolate: IIIB ; value: 0.033 µM
CCc1c(CC23CC4CC(CC(C4)C2)C3)nc(SCC(=O)Nc2ccc(C(C)=O)cc2Br)[nH]c1=O ; strain or isolate: RES056 ; value: >20.54 µM
O=C(NO)c1ncc(CNCc2cccc(F)c2)c(CO)c1O ; strain or isolate: NL4-3 ; value: 1 µM
Cc1cn([C@H]2C[C@H](N=[N+]=[N-])[C@@H](CO)O2)c(=O)[nH]c1=O ; strain or isolate: IIIB ; value: 0.0067 µM
Cc1ccccc1C(=O)c1cc(Cl)ccc1Oc1nc(Nc2ccc(C#N)cc2)ncc1C ; strain or isolate: IIIB ; value: >1.09 µM
Cc1c(CC23CC4CC(CC(C4)C2)C3)nc(SCC(=O)Nc2ccc(C(N)=O)cc2)[nH]c1=O ; strain or isolate: IIIB ; value: 3.84 µM
O=C(N/N=C/c1ccc(OCc2ccccc2)cc1)c1csc(N2N=C(c3ccccc3)CC2c2ccc(Cl)cc2)n1 ; strain or isolate: IIIB ; value: >125 µM
Cc1c(CC23CC4CC(CC(C4)C2)C3)nc(SCC(=O)Nc2ccc(C#N)cc2)[nH]c1=O ; strain or isolate: IIIB ; value: >6.69 µM
O=C1C=C2C(C3CC4=C([C@@H]5CC6=CC(=O)O[C@@]67C[C@@H]5N5CCC[C@@H]57)C(=O)O[C@@]45C[C@@H]3N3CCC[C@@H]35)=C[C@@H]3C[C@@]2(O1)[C@H]1CCCN31 ; strain or isolate: NL4-3 ; value: 122 µM
CC(=O)c1ccc(NC(=O)CSc2nc(CC34CC5CC(CC(C5)C3)C4)c(C)c(=O)[nH]2)c(Br)c1 ; strain or isolate: IIIB ; value: 1.3 µM
CN(CCc1c[nH]c2ccccc12)[C@@H]1CC2=CC(=O)O[C@@]23C[C@@H]1N1CCC[C@@H]13 ; strain or isolate: NL4-3 ; value: 42.6 µM
Cc1c(CC23CC4CC(CC(C4)C2)C3)nc(SCC(=O)c2ccccc2)[nH]c1=O ; strain or isolate: IIIB ; value: 1.05 µM
COC[C@@H](c1ccc(C(F)(F)F)cc1)N1CCN(C2(C)CCN(C(=O)c3c(C)ncnc3C)CC2)C[C@@H]1C ; strain or isolate: NL4-3 ; value: >5 µM
Cc1cc(NC(=S)c2ccccc2)ccc1N1C(=O)c2ccc(Cl)cc2C1=O ; strain or isolate: IIIB ; value: 0.632 µM
CCc1c(CC23CC4CC(CC(C4)C2)C3)nc(SCc2ccc(OC)cc2)[nH]c1=O ; strain or isolate: IIIB ; value: 0.31 µM

The last 2 rows once more:

structure | strain or isolate | value
Cc1cc(NC(=S)c2ccccc2)ccc1N1C(=O)c2ccc(Cl)cc2C1=O | IIIB | 0.632 µM
CCc1c(CC23CC4CC(CC(C4)C2)C3)nc(SCc2ccc(OC)cc2)[nH]c1=O | IIIB | 0.31 µM